# Potato spindle tuber viroid, loop 15: variant abundance in plants

Values reported by Wu et al. 2024 (doi:10.1371/journal.ppat.1012142).

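Three N. benthamiana plants were inoculated with the whole mutant pool. Samples came from the inoculated region at 5 days, the leaf margin at 10 and upper systemic leaves at 12.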

PSTVd intermediate strain, loop 15: wild type GGAAACCGCUACUAC, pool pattern GGAAACCGNNNNNNC; upper and lower strand joined, each 5' to 3', the first 7 letters being the upper strand, closing pairs included.

Numbers give reads per thousand; 0 = not seen among the reads, higher = more abundant.
Each value is the mean of three plants.
"Pool" is the share in the plasmid pool used as inoculum, on the same scale.
The inoculated region was read from the minus strand, the other sites from the plus strand.
IR is the inoculated region, LM the leaf margin, Sys the systemic leaves.

sequence	pool	IR	LM	Sys
GGAAACCGUCUGUUC	0.144	0.241	0.117	0.0919
GGAAACCGGCCUACC	0.224	0.121	0	0.00537
GGAAACCGACAUGAC	0.368	0.0797	0	0
GGAAACCGCUGUAAC	0.192	0.0823	0.0141	0
GGAAACCGCAGACGC	0.176	0.0913	0.00539	0
GGAAACCGCGGUGUC	0.128	0.0784	0.00539	0
GGAAACCGUUAAGGC	0.224	0.104	0.0121	0
GGAAACCGCGCACGC	0.224	0.123	0.0134	0
GGAAACCGCACCAGC	0.272	0.0876	0.00539	0
GGAAACCGGUCGUAC	0.192	0.335	0.140	0.0718
GGAAACCGUUGAUUC	0.256	0.277	0.0765	0
GGAAACCGCAGUUAC	0.224	0.297	0.130	0.0161
GGAAACCGCCUCGGC	0.128	0.141	0.00539	0
GGAAACCGCCAUGCC	0.208	0.0869	0.00539	0
GGAAACCGUGCGUCC	0.240	0.310	0.114	0.00537
GGAAACCGCCCCUCC	0.336	0.0639	0	0
GGAAACCGCGACUAC	1.49	0.914	1.17	0.737
GGAAACCGCCGCAUC	0.112	0.347	0.0275	0.00537
GGAAACCGACCCUAC	0.224	0.333	0.128	0.00537
GGAAACCGGGUGGUC	0.304	0.121	0.0134	0.00537
GGAAACCGGUGAUAC	0.272	0.101	0.00539	0
GGAAACCGGUCGUGC	0.240	0.313	0.0731	0.00537
GGAAACCGUCGAAUC	0.288	0.0848	0.0121	0
GGAAACCGAUCGACC	0.240	0.107	0.0108	0
GGAAACCGAUGUGGC	0.272	0.0741	0.0141	0
GGAAACCGGAAUAUC	0.160	0.0903	0.00742	0.00537
GGAAACCGACCCCCC	0.112	0.0970	0.00668	0.00537
GGAAACCGAACCAUC	0.400	0.0856	0.0121	0.00537
GGAAACCGACGCCGC	0.224	0.0623	0.0187	0
GGAAACCGGUCGUUC	0.176	0.339	0.120	0.0765
GGAAACCGUACAACC	0.176	0.0632	0.0208	0
GGAAACCGAUGGACC	0.176	0.0695	0.00668	0
GGAAACCGAUAUGAC	0.160	0.0948	0	0
GGAAACCGCGGCUUC	0.240	0.111	0.00742	0
GGAAACCGAUUCCAC	0.288	0.0815	0.0390	0
GGAAACCGAUCGUCC	0.256	0.313	0.152	0.0771
GGAAACCGUUAAAAC	0.224	0.364	0.181	0.0360

Extract of 3 entries:

{"sequence": "GGAAACCGCGGUGUC", "pool": "0.128", "IR": 0.0784, "LM": 0.00539, "Sys": 0}
{"sequence": "GGAAACCGACCCCCC", "pool": "0.112", "IR": 0.0970, "LM": 0.00668, "Sys": 0.00537}
{"sequence": "GGAAACCGGAAUAUC", "pool": "0.160", "IR": 0.0903, "LM": 0.00742, "Sys": 0.00537}

Wild type was 33.9 per thousand in the pool and the most common sequence in every sample (inoculated region 202, 200, 159; leaf margin 724, 746, 710; systemic leaves 856, 883, 880).
Sequences that differ at fixed positions probably stem from PCR or sequencing errors, and defective variants can be carried along by functional ones.
With 43,870-66,106 reads a sample, very low values are single reads.